A mixed list of measured activities; the numbers were collected in NIAID ChemDB.

All rows: enzyme or target tests

Inhibition is in % at the dose shown (toxicity tests: loss of growth or viability). Fold resistance has wild type as its base. An empty or dashed field is not shown. Neighbouring rows are from separate reports. ICn: concentration for n% inhibition.

{"structure": "CC[C@H]1C(=O)Nc2ccc(F)cc2N1C(=O)OC(C)C", "read by": "nucleotide incorporation / radiometric", "species": "HIV", "read-out": "fold resistance", "changes": "RT-N137D", "target": "Reverse transcriptase", "value": "1"}
{"structure": "CC1(C)OC(=O)/C(=C/C(=O)c2c[nH]c3ccc(Br)cc23)O1", "read by": "strand transfer / fluorescence", "species": "HIV-1", "read-out": "fold resistance", "changes": "Y143R", "target": "Integrase", "value": "1"}
{"structure": "Cc1cc(SC2=C(O)C[C@@](CCc3ccc(O)cc3)(C(C)C)OC2=O)c(C(C)(C)C)cc1N", "species": "HIV", "read-out": "fold resistance", "changes": "PR-V82F", "target": "Protease", "value": "25"}
{"structure": "CC[C@H](C)[C@@H](NC(=O)[C@@H](C[C@H](O)[C@H](CC(C)C)NC(=O)[C@H](Cc1cnc[nH]1)NC(=O)[C@H](Cc1ccccc1)NC(=O)[C@@H]1CCCN1C(=O)[C@@H](N)Cc1cnc[nH]1)C(C)C)C(=O)N[C@@H](Cc1cnc[nH]1)C(=O)O", "read by": "HPLC", "species": "HIV-2", "read-out": "Ki", "setting": "pH 6.0", "target": "Protease", "value": "0.01 µM"}
{"structure": "c1ccc(C2SCc3nc4ccccc4n32)cc1", "species": "HIV", "read-out": "fold resistance", "changes": "RT-K103N Y188L", "target": "Reverse transcriptase", "value": ">2"}
{"structure": "CO[P@](=O)(c1cc(C)cc(/C=C/C#N)c1)c1c(C(N)=O)[nH]c2ccc(Cl)c(F)c12", "species": "HIV", "read-out": "IC50", "changes": "V106M", "target": "Reverse transcriptase", "value": "0.23 µM"}
{"structure": "O=C(O)C(=O)/C=C(\\O)c1cn(Cc2cc(F)ccc2F)c2ccc(F)cc12", "read by": "strand transfer / fluorescence", "species": "HIV-1", "read-out": "fold resistance", "changes": "Y143R", "target": "Integrase", "value": "11"}
{"structure": "CC(C)[C@H](NC(=O)c1ccc2ccccc2n1)C(=O)N[C@@H](Cc1ccccc1)[C@H](O)CN1CC[C@@H](SCc2cccnc2)C[C@H]1C(=O)NC(C)(C)C", "read by": "fluorescence", "species": "HIV", "read-out": "fold resistance", "changes": "PR-V32I", "target": "Protease", "value": "22.9"}
{"structure": "Cc1cn([C@H]2C=C[C@@H](COP(=O)(O)OP(=O)(O)OP(=O)(O)O)O2)c(=O)[nH]c1=O", "read by": "nucleotide incorporation / radiometric", "species": "HIV", "read-out": "fold resistance", "changes": "RT-N137T", "target": "Reverse transcriptase", "value": "8.95"}
{"structure": "O=S1(=O)N(Cc2cccc(-c3cccs3)c2)[C@H](COc2ccccc2)[C@H](O)[C@@H](O)[C@@H](COc2ccccc2)N1Cc1cccc(-c2cccs2)c1", "species": "HIV-1", "read-out": "fold resistance", "changes": "PR-V82A", "target": "Protease", "value": "17.7"}
{"structure": "CC[C@H]1C=CCC[C@@]2(C[C@@H]3CC[C@@H]4[C@H](C(=O)OCCCCCCCCCCC(=O)N(CCC[NH3+])C[C@@H](O)CC[NH3+])[C@]5(CCC[C@@H](C)O5)NC(=[N+]34)N2)O1", "read by": "ELISA", "species": "HIV-1", "strain": "NL4-3", "read-out": "IC50", "target": "Nef", "value": "<5 µM"}
{"structure": "Cc1cccc(C)c1OCC(=O)N[C@@H](Cc1ccccc1)[C@H](O)CN1CC[C@@H](Sc2ccncc2)C[C@H]1C(=O)NC(C)(C)C", "read by": "fluorescence", "species": "HIV", "read-out": "Ki", "changes": "PR-L23I V32I M46I I47V I54M A71V I84V", "target": "Protease", "value": "0.0681 µM"}
{"structure": "CC(C)=CCOc1cc(NC(=S)c2ccoc2C)ccc1Cl", "read by": "nucleotide incorporation / radiometric", "species": "HIV", "read-out": "IC50", "changes": "RT-N137D", "target": "Reverse transcriptase", "value": "0.02 µM"}
{"structure": "CNC(=O)[C@@H](NC(=O)[C@H](OCc1ccccc1)[C@H](O)[C@@H](O)[C@@H](OCc1ccccc1)C(=O)N[C@H]1c2ccccc2C[C@H]1O)C(C)C", "species": "HIV", "read-out": "fold resistance", "changes": "PR-L90M", "target": "Protease", "value": "1.61"}
{"structure": "C=CCOC(=O)C1=C(C)NC2=[N+]3[C@@H](CC[C@@H]13)C[C@@H](CCCCC[C@@H](C)OCc1ccccc1)N2", "read by": "ELISA", "species": "HIV-1", "strain": "NL4-3", "read-out": "inhibition", "tested at": "5 µM", "target": "Nef", "value": "82.7%"}
{"structure": "CCOC(=O)C(C(=O)OCC)c1cn(S(=O)(=O)c2ccc(C)cc2)c2ccc(NC(=O)c3ccc(F)cc3Cl)cc12", "read by": "strand transfer / fluorescence", "species": "HIV-1", "read-out": "fold resistance", "changes": "Y143R", "target": "Integrase", "value": "1"}
{"structure": "CCCCCCC[C@H](O)C[C@@H]1CC[C@H]2C(C(=O)O[C@H](C)CCCCCCC[C@@H]3C[C@@H]4CC[C@@H]5C[C@H](C)NC(=[N+]54)N3)=C(C)NC(N)=[N+]12", "read by": "ELISA", "species": "HIV-1", "strain": "NL4-3", "read-out": "inhibition", "tested at": "5 µM", "target": "Nef", "value": "87.2%"}
{"structure": "O=S1(=O)N(Cc2ccc(CO)cc2)[C@H](COc2ccccc2)[C@H](O)[C@@H](O)[C@@H](COc2ccccc2)N1Cc1ccc(CO)cc1", "species": "HIV-1", "read-out": "fold resistance", "changes": "PR-V82A", "target": "Protease", "value": "0.806"}
{"structure": "Cc1ccc(S(=O)(=O)n2cc(/C(O)=C/C(=O)C(=O)O)c3cc(F)ccc32)cc1", "read by": "strand transfer / fluorescence", "species": "HIV-1", "read-out": "fold resistance", "changes": "Y143R", "target": "Integrase", "value": "8"}
{"structure": "CC[C@H]1C=CCC[C@@]2(C[C@@H]3CC[C@@H]4[C@H](C(=O)OCc5ccccc5)[C@]5(CCC[C@@H](C)O5)NC(=[N+]34)N2)O1", "read by": "ELISA", "species": "HIV-1", "strain": "NL4-3", "read-out": "IC50", "target": "Nef", "value": "<5 µM"}
{"structure": "Cc1cn([C@H]2CC[C@@H](COP(=O)(O)OP(=O)(O)OP(=O)(O)O)O2)c(=O)[nH]c1=O", "read by": "nucleotide incorporation / radiometric", "species": "HIV-1", "read-out": "fold resistance", "changes": "RT-I135M", "target": "Reverse transcriptase", "value": "0.9"}
{"structure": "O=C(O)C(C(=O)O)c1c[nH]c2ccc([N+](=O)[O-])cc12", "read by": "strand transfer / fluorescence", "species": "HIV-1", "read-out": "fold resistance", "changes": "Y143R", "target": "Integrase", "value": "0.9"}

For reference, 2 entries again:

structure,read by,species,strain,read-out,tested at,setting,changes,target,value
CC(C)[C@H](NC(=O)c1ccc2ccccc2n1)C(=O)N[C@@H](Cc1ccccc1)[C@H](O)CN1CC[C@@H](SCc2cccnc2)C[C@H]1C(=O)NC(C)(C)C,fluorescence,HIV,-,fold resistance,-,-,PR-V32I,Protease,22.9
CC[C@H]1C(=O)Nc2ccc(F)cc2N1C(=O)OC(C)C,nucleotide incorporation / radiometric,HIV,-,fold resistance,-,-,RT-N137D,Reverse transcriptase,1